From patent publication US9957247B2, “SecA inhibitors and methods of making and using thereof” (Georgia State University Research Foundation, Inc., priority 2012, dated 2018)

The chains behind the UniProt entries cited, without tags or fusion partners.
UniProt Q9LCT3, whole entry: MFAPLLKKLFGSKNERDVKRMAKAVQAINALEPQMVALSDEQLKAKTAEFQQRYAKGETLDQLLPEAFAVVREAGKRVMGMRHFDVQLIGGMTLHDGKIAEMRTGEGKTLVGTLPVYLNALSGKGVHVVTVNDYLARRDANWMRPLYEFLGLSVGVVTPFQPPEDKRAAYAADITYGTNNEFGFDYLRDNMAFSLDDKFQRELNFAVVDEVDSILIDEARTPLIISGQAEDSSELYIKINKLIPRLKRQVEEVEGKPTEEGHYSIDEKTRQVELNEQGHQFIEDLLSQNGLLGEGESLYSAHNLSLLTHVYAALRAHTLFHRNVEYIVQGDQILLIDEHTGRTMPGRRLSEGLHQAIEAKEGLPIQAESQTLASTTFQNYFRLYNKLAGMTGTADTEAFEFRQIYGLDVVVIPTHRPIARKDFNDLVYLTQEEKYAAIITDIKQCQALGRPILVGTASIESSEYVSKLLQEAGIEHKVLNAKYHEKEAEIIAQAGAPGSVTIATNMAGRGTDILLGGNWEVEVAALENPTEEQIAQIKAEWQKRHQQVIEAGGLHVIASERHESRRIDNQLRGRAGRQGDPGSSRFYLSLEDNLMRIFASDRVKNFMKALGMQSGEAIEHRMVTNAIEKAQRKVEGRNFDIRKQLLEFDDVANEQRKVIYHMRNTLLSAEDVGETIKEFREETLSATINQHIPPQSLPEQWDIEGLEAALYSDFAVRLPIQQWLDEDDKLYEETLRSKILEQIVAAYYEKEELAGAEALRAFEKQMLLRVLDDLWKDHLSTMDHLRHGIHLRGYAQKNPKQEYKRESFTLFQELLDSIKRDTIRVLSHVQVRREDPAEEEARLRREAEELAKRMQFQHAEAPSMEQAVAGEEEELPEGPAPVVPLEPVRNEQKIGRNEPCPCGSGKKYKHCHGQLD
UniProt P9WGP5, whole entry: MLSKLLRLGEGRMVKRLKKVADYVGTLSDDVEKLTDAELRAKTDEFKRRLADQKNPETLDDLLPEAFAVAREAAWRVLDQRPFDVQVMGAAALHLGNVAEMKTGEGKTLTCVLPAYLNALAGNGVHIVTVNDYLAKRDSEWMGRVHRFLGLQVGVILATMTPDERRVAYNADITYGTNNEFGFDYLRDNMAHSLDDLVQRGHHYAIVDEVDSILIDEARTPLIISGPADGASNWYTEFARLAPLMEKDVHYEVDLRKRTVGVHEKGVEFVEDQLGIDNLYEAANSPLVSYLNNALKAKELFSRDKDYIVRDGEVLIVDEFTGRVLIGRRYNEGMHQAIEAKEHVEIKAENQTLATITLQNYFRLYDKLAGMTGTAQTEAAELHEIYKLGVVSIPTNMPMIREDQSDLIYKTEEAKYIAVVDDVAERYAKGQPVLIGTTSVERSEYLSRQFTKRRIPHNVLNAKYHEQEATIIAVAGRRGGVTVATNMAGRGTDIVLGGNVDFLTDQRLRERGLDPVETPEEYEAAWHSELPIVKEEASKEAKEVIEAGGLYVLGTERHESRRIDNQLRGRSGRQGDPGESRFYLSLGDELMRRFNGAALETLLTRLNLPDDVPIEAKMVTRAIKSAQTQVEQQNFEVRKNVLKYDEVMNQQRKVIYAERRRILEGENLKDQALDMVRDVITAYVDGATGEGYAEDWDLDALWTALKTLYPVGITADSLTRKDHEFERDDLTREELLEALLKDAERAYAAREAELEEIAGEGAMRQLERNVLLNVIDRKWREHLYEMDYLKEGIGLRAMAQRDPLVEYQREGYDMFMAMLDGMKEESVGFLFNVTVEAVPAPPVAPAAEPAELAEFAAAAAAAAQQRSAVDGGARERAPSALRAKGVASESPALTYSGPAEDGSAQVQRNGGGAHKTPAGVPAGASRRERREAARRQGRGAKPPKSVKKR

Tests used:
[1] = molecular target: PaSecA (Pseudomonas aeruginosa, UniProt Q9LCT3)
[2] = molecular target: MtbSecA (Mycobacterium tuberculosis, UniProt P9WGP5)
[3] = system: B. anthracis Sterne
[4] = system: S. aureus Mu50; assay: Bacteriostatic effect, S. aureus Mu50

FC(F)(F)c1cc(-c2nnc(Sc3cc(Cl)nc(Sc4ccccc4)n3)[nH]2)cc(C(F)(F)F)c1
pIC50 [1]: 5.96 | pIC50 [2]: 5.70 | Bacteriostatic MIC95, B. anthracis Sterne [3]: 0.8 µg/mL | Bacteriostatic MIC95, S. aureus Mu50 ([4]; Table 2): 0.4 µg/mL | MIC95 against drug resistant S. aureus Mu50 ([4]; text b443): 0.4 µM (≈ 0.214 µg/mL)

pIC50: −log10 of the molar value. ≈ marks a conversion by molar mass, not a printed value.
